Measurements: PMC12678819, “Targeting bacterial kinases as a strategy to counteract antibiotic resistance” (2025)

System: Pseudomonas aeruginosa C0214
Assay: Bacterial growth / checkerboard assay with kanamycin A
Details: for growth curve reading: [10] 0 µM, panel C

Structure (SMILES): NC[C@H]1O[C@H](O[C@H]2[C@H](O)[C@@H](O[C@H]3O[C@H](CO)[C@@H](O)[C@H](N)[C@H]3O)[C@H](N)C[C@@H]2N)[C@H](O)[C@@H](O)[C@@H]1O
- OD600nm (KanaA 8 µg.mL-1 alone (inhibitor 0 µM)): 0.3090 and 0.2865 and 0.3001
- OD600nm (KanaA 16 µg.mL-1 alone (inhibitor 0 µM)): 0.3312 and 0.2857 and 0.2964
- OD600nm (KanaA 32 µg.mL-1 alone (inhibitor 0 µM)): 0.2577 and 0.2210 and 0.2829
- growth curve reading (Kanamycin A 8 µg·mL-1, 8 h): 0.2090
- growth curve reading (Kanamycin A 8 µg·mL-1, 9 h): 0.2342
- growth curve reading (Kanamycin A 8 µg·mL-1, 10 h): 0.2578
- growth curve reading (Kanamycin A 8 µg·mL-1, 11 h): 0.2718
- growth curve reading (Kanamycin A 8 µg·mL-1, 12 h): 0.2802
- growth curve reading (Kanamycin A 8 µg·mL-1, 13 h): 0.2813
- growth curve reading (Kanamycin A 8 µg·mL-1, 14 h): 0.2816
- growth curve reading (Kanamycin A 8 µg·mL-1, 15 h): 0.2802
- growth curve reading (Kanamycin A 8 µg·mL-1, 16 h): 0.2778
- growth curve reading (Kanamycin A 8 µg·mL-1, 17 h): 0.2779
- growth curve reading (Kanamycin A 8 µg·mL-1, 18 h): 0.2758
- growth curve reading (Kanamycin A 8 µg·mL-1, 19 h): 0.2748
- growth curve reading (Kanamycin A 8 µg·mL-1, 20 h): 0.2731
- growth curve reading (Kanamycin A 8 µg·mL-1, 21 h): 0.2707
- growth curve reading (Kanamycin A 8 µg·mL-1, 22 h): 0.2682
- growth curve reading (Kanamycin A 8 µg·mL-1, 23 h): 0.2658
- growth curve reading (Kanamycin A 8 µg·mL-1, 24 h): 0.2647
- growth curve reading (Kanamycin A 16 µg·mL-1, 8 h): 0.1243
- growth curve reading (Kanamycin A 16 µg·mL-1, 9 h): 0.1559
- growth curve reading (Kanamycin A 16 µg·mL-1, 10 h): 0.1962
- growth curve reading (Kanamycin A 16 µg·mL-1, 11 h): 0.2386
- growth curve reading (Kanamycin A 16 µg·mL-1, 12 h): 0.2679
- growth curve reading (Kanamycin A 16 µg·mL-1, 13 h): 0.2727
- growth curve reading (Kanamycin A 16 µg·mL-1, 14 h): 0.2740
- growth curve reading (Kanamycin A 16 µg·mL-1, 15 h): 0.2720
- growth curve reading (Kanamycin A 16 µg·mL-1, 16 h): 0.2701
- growth curve reading (Kanamycin A 16 µg·mL-1, 17 h): 0.2727
- growth curve reading (Kanamycin A 16 µg·mL-1, 18 h): 0.2750
- growth curve reading (Kanamycin A 16 µg·mL-1, 19 h): 0.2738
- growth curve reading (Kanamycin A 16 µg·mL-1, 20 h): 0.2690
- growth curve reading (Kanamycin A 16 µg·mL-1, 21 h): 0.2714
- growth curve reading (Kanamycin A 16 µg·mL-1, 22 h): 0.2692
- growth curve reading (Kanamycin A 16 µg·mL-1, 23 h): 0.2713
- growth curve reading (Kanamycin A 16 µg·mL-1, 24 h): 0.2771
- growth curve reading (Kanamycin A 32 µg·mL-1, 8 h): 0.0004
- growth curve reading (Kanamycin A 32 µg·mL-1, 9 h): 0.0008
- growth curve reading (Kanamycin A 32 µg·mL-1, 10 h): 0.0015
- growth curve reading (Kanamycin A 32 µg·mL-1, 11 h): 0.0032
- growth curve reading (Kanamycin A 32 µg·mL-1, 12 h): 0.0065
- growth curve reading (Kanamycin A 32 µg·mL-1, 13 h): 0.0133
- growth curve reading (Kanamycin A 32 µg·mL-1, 14 h): 0.0399
- growth curve reading (Kanamycin A 32 µg·mL-1, 15 h): 0.0809
- growth curve reading (Kanamycin A 32 µg·mL-1, 16 h): 0.1197
- growth curve reading (Kanamycin A 32 µg·mL-1, 17 h): 0.1579
- growth curve reading (Kanamycin A 32 µg·mL-1, 18 h): 0.2103
- growth curve reading (Kanamycin A 32 µg·mL-1, 19 h): 0.2611
- growth curve reading (Kanamycin A 32 µg·mL-1, 20 h): 0.2760
- growth curve reading (Kanamycin A 32 µg·mL-1, 21 h): 0.2862
- growth curve reading (Kanamycin A 32 µg·mL-1, 22 h): 0.2885
- growth curve reading (Kanamycin A 32 µg·mL-1, 23 h): 0.2826
- growth curve reading (Kanamycin A 32 µg·mL-1, 24 h): 0.2803
- growth curve reading (Kanamycin A 64 µg·mL-1, 8 h): 0.0000
- growth curve reading (Kanamycin A 64 µg·mL-1, 9 h): 0.0000
- growth curve reading (Kanamycin A 64 µg·mL-1, 10 h): 0.0000
- growth curve reading (Kanamycin A 64 µg·mL-1, 11 h): 0.0000
- growth curve reading (Kanamycin A 64 µg·mL-1, 12 h): 0.0000
- growth curve reading (Kanamycin A 64 µg·mL-1, 13 h): 0.0000
- growth curve reading (Kanamycin A 64 µg·mL-1, 14 h): 0.0000
- growth curve reading (Kanamycin A 64 µg·mL-1, 15 h): 0.0000
- growth curve reading (Kanamycin A 64 µg·mL-1, 16 h): 0.0008
- growth curve reading (Kanamycin A 64 µg·mL-1, 17 h): 0.0027
- growth curve reading (Kanamycin A 64 µg·mL-1, 18 h): 0.0137
- growth curve reading (Kanamycin A 64 µg·mL-1, 19 h): 0.0327
- growth curve reading (Kanamycin A 64 µg·mL-1, 20 h): 0.0564
- growth curve reading (Kanamycin A 64 µg·mL-1, 21 h): 0.0837
- growth curve reading (Kanamycin A 64 µg·mL-1, 22 h): 0.1155
- growth curve reading (Kanamycin A 64 µg·mL-1, 23 h): 0.1484
- growth curve reading (Kanamycin A 64 µg·mL-1, 24 h): 0.1825
- growth curve reading (Kanamycin A 128 µg·mL-1, 8 h): 0.0000
- growth curve reading (Kanamycin A 128 µg·mL-1, 9 h): 0.0000
- growth curve reading (Kanamycin A 128 µg·mL-1, 10 h): 0.0000
- growth curve reading (Kanamycin A 128 µg·mL-1, 11 h): 0.0000
- growth curve reading (Kanamycin A 128 µg·mL-1, 12 h): 0.0000
- growth curve reading (Kanamycin A 128 µg·mL-1, 13 h): 0.0000
- growth curve reading (Kanamycin A 128 µg·mL-1, 14 h): 0.0000
- growth curve reading (Kanamycin A 128 µg·mL-1, 15 h): 0.0000
- growth curve reading (Kanamycin A 128 µg·mL-1, 16 h): 0.0000
- growth curve reading (Kanamycin A 128 µg·mL-1, 17 h): 0.0000
- growth curve reading (Kanamycin A 128 µg·mL-1, 18 h): 0.0000
- growth curve reading (Kanamycin A 128 µg·mL-1, 19 h): 0.0000
- growth curve reading (Kanamycin A 128 µg·mL-1, 20 h): 0.0000
- growth curve reading (Kanamycin A 128 µg·mL-1, 21 h): 0.0000
- growth curve reading (Kanamycin A 128 µg·mL-1, 22 h): 0.0000
- growth curve reading (Kanamycin A 128 µg·mL-1, 23 h): 0.0000
- growth curve reading (Kanamycin A 128 µg·mL-1, 24 h): 0.0000
- MIC (P. aeruginosa C0214): 64 µg/mL

Several values for one entry are separate records, joined by “and”; a condition that tells them apart may be missing. Equal entries are not always repeated.
